Reference: patent US20140018418A1 (priority 2007, published 2014)

Target: neuraminidase of H5N1 influenza virus A/Hanoi/30408/2005 (clone 9), oseltamivir resistant strain (Influenza A virus, UniProt Q3C1C4)

CC(=O)N[C@H]1[C@H]([C@H](O)[C@H](O)CO)OC(C(=O)O)=C[C@@H]1N=C(N)N [Zanamivir, reference compound]
pIC50: 9.09

pIC50: −log10 of the molar value.
